Data as given in PubChem BioAssay AID624099 (ICCB-Longwood, 2012).
Assay: 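Knock-downs relieving repression by E2 of an HPV18 LCR luciferase reporter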 (primary screen). Cells: human C33A cervical carcinoma cells (HPV-negative) stably expressing BPV1 E2 and an HPV18 LCR luciferase reporter. Knock-down reagent: siRNA pool against human genes, 40 nM. Time to read-out: 72 h. Detection: 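HPV18 LCR reporter light per well, converted to plate-wise z-scores that exclude control wells, and averaged over triplicate plates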. Direction: mean z-score and z-score: higher = stronger reporter signal, weaker E2 silencing. Call rule: 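Hit if mean z-score reaches 2 and two or more of three replicate z-scores also reach 2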.
In all, the deposit lists about 21,000 reagents; this is a random part of them. In the full data, 497 (2.4%) got an active call. 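Higher z means weaker E2 silencing; only reporter increases were scored, and knock-downs that hurt cell survival may mask genuine repressor factors.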 Unmarked entries are inactive. No sequences are given here.

Against RPL35P7 (ribosomal protein L35 pseudogene 7), the values are mean z-score -1.44; z-score, replicate A = -0.81; z-score, replicate B = -1.46; z-score, replicate C = -2.06.
For RAD54L2 (RAD54 like 2), the values are mean z-score 1; z-score, replicate A = 0.84; z-score, replicate B = 1.81; z-score, replicate C = 0.35.
SSTR5-AS1 (SSTR5 antisense RNA 1) gave mean z-score -0.38; z-score, replicate A = -0.23; z-score, replicate B = -0.86; z-score, replicate C = -0.07.
AHNAK2 (AHNAK nucleoprotein 2) gave mean z-score 2.19 (active); z-score, replicate A = 2.48; z-score, replicate B = 2.02; z-score, replicate C = 2.06.
Silencing of APOL5 (apolipoprotein L5) gave: mean z-score 0.27; z-score, replicate A = 0.18; z-score, replicate B = 0.16; z-score, replicate C = 0.47.
Silencing of SRP68 (signal recognition particle 68) resulted in: mean z-score -0.48; z-score, replicate A = -0.51; z-score, replicate B = -0.45; z-score, replicate C = -0.48.
Depletion of SVBP (small vasohibin binding protein) came out at: mean z-score 1.45; z-score, replicate A = 1.36; z-score, replicate B = 1.46; z-score, replicate C = 1.54.
Against PRDM16 (PR/SET domain 16) the deposit lists mean z-score -0.81; z-score, replicate A = -0.6; z-score, replicate B = -0.95; z-score, replicate C = -0.88.
With knock-down of EDRF1-DT (EDRF1 divergent transcript) the results were mean z-score 3.3 (active); z-score, replicate A = 3.56; z-score, replicate B = 3.51; z-score, replicate C = 2.83.
After knock-down of KIAA0513, the record shows mean z-score -0.3; z-score, replicate A = -0.37; z-score, replicate B = -0.24; z-score, replicate C = -0.29.
LOC388160 (retired record) showed mean z-score 0.34; z-score, replicate A = 0.61; z-score, replicate B = 0; z-score, replicate C = 0.42.
CCDC125 (coiled-coil domain containing 125) gave mean z-score 1.76; z-score, replicate A = 2.02; z-score, replicate B = 1.54; z-score, replicate C = 1.74.
Silencing of ARPC3 (actin related protein 2/3 complex subunit 3) came out at: mean z-score -0.15; z-score, replicate A = -0.23; z-score, replicate B = -0.17; z-score, replicate C = -0.06.
Silencing of FRMPD2 (FERM and PDZ domain containing 2) resulted in: mean z-score -0.01; z-score, replicate A = 0; z-score, replicate B = -0.28; z-score, replicate C = 0.24.
Silencing of KCNT1 (potassium sodium-activated channel subfamily T member 1) resulted in: mean z-score -0.56; z-score, replicate A = -0.65; z-score, replicate B = -0.39; z-score, replicate C = -0.65.
Against CLYBL (citramalyl-CoA lyase), the entry reads mean z-score 0.64; z-score, replicate A = 0.79; z-score, replicate B = 0.55; z-score, replicate C = 0.6.
With knock-down of JPH2 (junctophilin 2), the record shows mean z-score -1.27; z-score, replicate A = -1.11; z-score, replicate B = -1.52; z-score, replicate C = -1.19.
After knock-down of CTDP1-DT (CTDP1 divergent transcript), the screen gave mean z-score -1.7; z-score, replicate A = -1.64; z-score, replicate B = -1.66; z-score, replicate C = -1.79.
Silencing of ACAD9 (acyl-CoA dehydrogenase family member 9) resulted in: mean z-score 0.05; z-score, replicate A = -0.07; z-score, replicate B = 0.19; z-score, replicate C = 0.02.
Against TECR (trans-2,3-enoyl-CoA reductase), the entry reads mean z-score 0.73; z-score, replicate A = 0.56; z-score, replicate B = 0.97; z-score, replicate C = 0.66.
TRAPPC4 (trafficking protein particle complex subunit 4) scored mean z-score -0.4; z-score, replicate A = -0.33; z-score, replicate B = -0.57; z-score, replicate C = -0.29.
After knock-down of HEY2, the record shows mean z-score -1.27; z-score, replicate A = -1.22; z-score, replicate B = -1.61; z-score, replicate C = -0.99.
After knock-down of COL4A4 (collagen type IV alpha 4 chain), the record shows mean z-score 0.11; z-score, replicate A = 0.14; z-score, replicate B = -0.01; z-score, replicate C = 0.2.
For SLC4A4 the deposit lists mean z-score -0.18; z-score, replicate A = -0.37; z-score, replicate B = -0.14; z-score, replicate C = -0.03.
MDH2 (malate dehydrogenase 2) scored mean z-score -0.24; z-score, replicate A = -0.5; z-score, replicate B = -0.19; z-score, replicate C = -0.04.
DHX36 (DEAH-box helicase 36) showed mean z-score -2.6; z-score, replicate A = -2.75; z-score, replicate B = -2.68; z-score, replicate C = -2.36.
Depletion of STS (steroid sulfatase) resulted in: mean z-score 1.1; z-score, replicate A = 1.03; z-score, replicate B = 1.3; z-score, replicate C = 0.96.

Records listed above marked active (2):
AHNAK2 (AHNAK nucleoprotein 2) | mean z-score: 2.19 (active); z-score, replicate A: 2.48; z-score, replicate B: 2.02; z-score, replicate C: 2.06
EDRF1-DT (EDRF1 divergent transcript) | mean z-score: 3.3 (active); z-score, replicate A: 3.56; z-score, replicate B: 3.51; z-score, replicate C: 2.83
